Compound potency records, mixed from different reports. Data source: NIAID ChemDB in PubChem.

Common to all: cytotoxicity tests; cells: MDCK; endpoint: CC50

Blank or dashed fields: not listed here. Rows are shuffled and stem from different studies. CCn: concentration that lowers growth or viability of the cells by n%.

SMILES | read by | value
CC(C)CS[C@H]1C[C@@H](n2cnc3c(N)ncnc32)[C@H](O)[C@@H]1O | - | >200 µg/mL
CCCC(CCC)C(NC(C)=O)C1C(N=C(N)N)CC(C(=O)O)C1O | neutral red | >1000 µM
CCOc1ncn(-c2ccc(NC(=S)Nc3cccc(O)c3)cc2)n1 | - | >200 µg/mL
Cc1ccc(O)c(C(=O)NCCCN2[C@H](C)CC[C@@H]3CCCC[C@@H]32)c1 | - | 90 µg/mL
Nc1nc2c(ncn2[C@@H]2O[C@H](CO)[C@@H](O)[C@H]2F)c(=O)[nH]1 | MTT | 437 µM
CC(=O)N[C@H]1[C@H]([C@H](O)[C@H](O)CO)OC(C(=O)O)=C[C@@H]1N=C(N)N | neutral red | >1000 µM
Nc1ccn([C@@H]2O[C@H](CO)[C@@H](O)[C@H]2F)c(=O)n1 | MTT | 39 µM
Nc1nccc2c1ncn2[C@@H]1C[C@H](CO)[C@@H](O)[C@H]1O | - | >200 µg/mL
CCCCCCCCCCCCCCCCO[C@H]1N([C@H]2C[C@H](N=[N+]=[N-])[C@@H](CO)O2)C(=O)NC(=O)[C@]1(C)Br | MTT | >500 µg/mL
CCCC(CCC)C(NC(C)=O)C1CC(C(=O)O)CC1N=C(N)N | neutral red | >1000 µM
COc1nc2c(nc(N)n2[C@@H]2O[C@H](CO)[C@@H](O)[C@H]2F)c(=O)[nH]1 | MTT | >500 µM
CC1(C)C[C@@H](O)C[C@](C)(CNC(=S)c2cc(Cl)ccc2O)C1 | - | 4 µg/mL
CCCOc1ncn(-c2ccc(NC(=S)Nc3cccc(O)c3)cc2)n1 | - | 100 µg/mL
Cc1ccc(O)c(C(=O)NC2CCNCC2)c1 | - | 100 µg/mL
CN(C)C(=O)COC(=O)Cc1ccc(OC(=O)c2ccc(N=C(N)N)cc2)cc1.COS(=O)(=O)O | MTT | >500 µg/mL
CCOc1ncn(-c2ccc(NC(=S)Nc3cnccn3)cc2)n1 | - | 20 µg/mL
C1=CCC2(CC1)COC(c1ccco1)OC2 | MTT | >500 µg/mL
CCOc1ncn(-c2ccc(NC(=S)NC34CC5CC(CC(C5)C3)C4)cc2)n1 | - | >200 µg/mL
COc1ccccc1C(=S)NC[C@@]1(C)C[C@@H](O)CC(C)(C)C1 | - | 45 µg/mL
CC#Cc1cn([C@@H]2O[C@H](COP(=O)(O)Oc3ccc(F)cc3)[C@@H](O)[C@@H]2O)c(=O)[nH]c1=O | - | >500 µM
Nc1ncnc2c1ncn2[C@@H]1O[C@H](CO)[C@@H](O)[C@H]1F | MTT | 320 µM
C/C1=C\C=C\C2(C)C=C(CO[C@H]3O[C@H](CO)[C@H](O)[C@H](O)[C@H]3O)C(C)CC23OC([O-])C(C3=O)C(O)/C=C/C2(C)C=C(CO)C(C)CC23OC([O-])C(C3=O)C(O)/C(C)=C/C=C/C2C=C(CO[C@H]3O[C@H](CO)[C@H](O)[C@H](O)[C@H]3O)C(C)CC23OC([O-])C(C3=O)C(O)/C=C/C2(C)C=C(C=O)C(C)CC23OC([O-])C(C3=O)C1O | - | >100 µg/mL
COC1(OC)CC(CO)(CNc2cc(Cl)nc(N)n2)C1 | - | 52 µM
CCCOc1nc2c(nc(N)n2[C@@H]2O[C@H](CO)[C@@H](O)[C@H]2F)c(=O)[nH]1 | MTT | >500 µM
Nc1nc(Cl)cc(NCC2(CO)CC(=O)C2)n1 | - | >390 µM
CC(=O)N[C@H]1[C@H]([C@H](OC(=O)NCCCCCCNC(=O)CCC(NC(=O)C(F)(F)F)C(=O)NCC(=O)NCCCCCCNC(=O)O[C@@H]([C@@H]2OC(C(=O)O)=C[C@H](N=C(N)N)[C@H]2NC(C)=O)[C@H](O)CO)[C@H](O)CO)OC(C(=O)O)=C[C@@H]1N=C(N)N | - | >1 µg/mL
Cc1cccc(C(=S)NC[C@@]2(C)C[C@@H](O)CC(C)(C)C2)c1 | - | 20 µg/mL
Nc1nc2c(=O)[nH]c(Cl)nc2n1[C@@H]1O[C@H](CO)[C@@H](O)[C@H]1F | MTT | >500 µM
Cc1ccc(O)c(C(=O)NCCN2CCC(C)[C@@H]3CCCC[C@@H]32)c1 | - | 100 µg/mL
Cc1ccc(C(=S)NC[C@@]2(C)C[C@H](O)CC(C)(C)C2)c(C)c1 | - | 35 µg/mL
N#Cc1cc(CC(=O)c2ccccc2)c(=O)n2c1sc1ccccc12 | - | 200 µg/mL
C/C1=C\C=C\C2(C)C=C(CO)C(C)CC23OC([O-])C(C3=O)C(O)/C=C/C2(C)C=C(CO)C(C)CC23OC([O-])C(C3=O)C(O)/C(C)=C/C=C/C2C=C(CO)C(C)CC23OC([O-])C(C3=O)C(O)/C=C/C2(C)C=C(C=O)C(C)CC23OC([O-])C(C3=O)C1O | - | 68 µg/mL
CCC(C)N1C2CCC23CC[C@@H](NC(=O)c2cc(Cl)ccc2O)CC13 | - | 100 µg/mL
CCCOc1ncn(-c2ccc(NC(=S)NC34CC5CC(CC(C5)C3)C4)cc2)n1 | - | 100 µg/mL
O=C(Cc1cnc2[nH]c3ccccc3n2c1=O)c1ccccc1 | - | 40 µg/mL
CC#Cc1cn([C@@H]2O[C@H](COP(=O)(O)OCCCCCCCCCCCC)[C@@H](O)[C@@H]2O)c(=O)[nH]c1=O | - | 131 µM
N#Cc1cc(CC(=O)c2ccccc2)c(=O)n2c1oc1ccccc12 | - | 40 µg/mL
Cc1ccccc1C(=S)NC[C@@]1(C)C[C@H](O)CC(C)(C)C1 | - | 70 µg/mL
C[C@@H]1CCC[C@H](C)N1CCCNC(=O)c1cc(Cl)ccc1O | - | 100 µg/mL
CC#Cc1cn([C@@H]2O[C@H](COP(=O)(Oc3ccccc3)Oc3ccc([N+](=O)[O-])cc3)[C@@H](O)[C@@H]2O)c(=O)[nH]c1=O | - | 110 µM
N#Cc1cc(NC(=O)c2ccccc2)c(=O)n2c1[nH]c1ccccc12 | - | 22 µg/mL
Cc1ccc(O)c(C(=O)N[C@@H]2CCC34CCC3N(Cc3ccccc3)C4C2)c1 | - | 100 µg/mL
CCC(CC)[C@H](NC(C)=O)[C@@H]1[C@H](O)[C@@H](C(=O)O)C[C@H]1N=C(N)N | neutral red | >1000 µM
CC1=CC(=O)C=C(C/C=C(\C)CC/C=C(\C)CC/C=C(\C)CC[C@@H](C)C(C)(C)O)C1=O | - | 32 µM
C/C1=C\C=C\C2(C)C=C(CO)C(C)CC23OC([O-])C(C3=O)C(O)/C=C/C2(C)C=C(CO)C(C)CC23OC([O-])C(C3=O)C(O)/C(C)=C/C=C/C2C=C(CO)C(C)CC23OC([O-])C(C3=O)C(O)/C=C/C2(C)C=C(CO)C(C)CC23OC([O-])C(C3=O)C1O | - | >100 µg/mL
Cc1ccc(O)c(C(=O)NCCN2[C@H](C)CCC[C@@H]2C)c1 | - | >100 µg/mL
CC#Cc1cn([C@@H]2O[C@H](COP(=O)(O)Oc3ccccc3Cl)[C@@H](O)[C@@H]2O)c(=O)[nH]c1=O | - | 305 µM
Nc1nc(Cl)cc(NC2(CO)CCC2)n1 | - | >440 µM
COc1ccccc1C(=S)NC[C@@]1(C)C[C@H](O)CC(C)(C)C1 | - | 43 µg/mL
Nc1nc(Cl)cc(NCC2(CO)CC(O)C2)n1 | - | >120 µM
CCOC(=O)c1cc(C#N)c2[nH]c3ccccc3n2c1=O | - | >100 µg/mL
CC#Cc1cn([C@@H]2O[C@H](COP(=O)(O)OCC(Cl)(Cl)Cl)[C@@H](O)[C@@H]2O)c(=O)[nH]c1=O | - | 185 µM

For reference, 4 entries again:

CCC(C)N1C2CCC23CC[C@@H](NC(=O)c2cc(Cl)ccc2O)CC13 ; value: 100 µg/mL
CC#Cc1cn([C@@H]2O[C@H](COP(=O)(O)Oc3ccc(F)cc3)[C@@H](O)[C@@H]2O)c(=O)[nH]c1=O ; value: >500 µM
CCC(CC)[C@H](NC(C)=O)[C@@H]1[C@H](O)[C@@H](C(=O)O)C[C@H]1N=C(N)N ; read by: neutral red ; value: >1000 µM
CC#Cc1cn([C@@H]2O[C@H](COP(=O)(O)OCCCCCCCCCCCC)[C@@H](O)[C@@H]2O)c(=O)[nH]c1=O ; value: 131 µM